The source of these data is US8153397B2 (priority 1993, dated 2012).

This test addresses BoNT/A LC (Clostridium botulinum, UniProt P0DPI0). The test can be described thus: Proteolysis experiments: truncation and fragmentation of BoNT/A LC (SDS-PAGE). Type of test: biochemical. The note with it: incubation at 4° C., TPEN 5 mM, EDTA 10 mM, peptide 1 mM, ZnCl2 0.25 mM.

In the case of ZnCl2, the “effect on truncation and fragmentation of the LC” value is on record as “the rate of fragmentation was greatly increased”.
